{
  "source": "paper PMC5011961",
  "about": "“In vitro antimicrobial activities of animal-used quinoxaline 1,4-di-N-oxides against mycobacteria, mycoplasma and fungi” (BMC Veterinary Research, 2016)",
  "test_system": "PK-15 cells",
  "experiment": "Cytotoxicity assay (MTT)",
  "conditions": "PK-15, maximum non-cytotoxic concentration (90 % cell viability)",
  "data": [
    {"smiles": "NC(=O)c1ncn([C@@H]2O[C@H](CO)[C@@H](O)[C@H]2O)n1", "note": "[Ribavirin, ribavirin]", "values": [
      {"measurement": "MNTC", "result": 2.0, "unit": "µg/mL"}
    ]}
  ]
}
